Experimental data reported in publication PMC3410853, “Structural Bases of Coronavirus Attachment to Host Aminopeptidase N and Its Inhibition by Neutralizing Antibodies” (PLoS Pathogens, 2012).

T1: SA-Flag protein (monovalent SA-Flag variant; TGEV S residues 481 to 650) (Transmissible gastroenteritis virus …)
T1 chain: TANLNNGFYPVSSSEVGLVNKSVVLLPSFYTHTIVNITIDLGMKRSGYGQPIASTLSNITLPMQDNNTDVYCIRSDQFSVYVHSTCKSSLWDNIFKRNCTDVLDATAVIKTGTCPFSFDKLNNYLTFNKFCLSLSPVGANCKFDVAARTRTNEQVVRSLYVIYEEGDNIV

B1: Fab fragment of the TGEV-neutralizing mAb 1AF10 (Fab, V domains shown)
VH: QVQLQQSGPELVKPGASVKISCKASGYAFSSSWMNWVKQRPGQGLEWIGRIYPGDGETNYSEKFKGKATLTADKSSSTAYMHLSSLTSVDSAVYFCARGGYRYDPYYAMDYWGQGTSVTVSS
VL: DILLTQSPAILSVSPGERVSLSCRASQSIGTSIHWYQQRTNGSPRPLIKYASESISGIPSRFSGSGSGTDFTLNINSVESEDIADYFCQQTDSWPTTFGAGTKLELK
notes: also called 1AF10 Fab; 1AF10-Fab fragment

What was measured:
[1] = target: porcine aminopeptidase N (pAPN) on the surface of BHK-pAPN cells (UniProt P15145); experiment: flow cytometry on cells (FACS, percentage of stained cells); conditions: same concentration of wild type and mutant SA-Fc proteins, parent: est. 100, read off a plot
[2] = target: T1, SA-Flag protein (monovalent SA-Flag …); experiment: crystal structure; conditions: both partners purified

| Molecule | percent of parent [1] | binding result [2] |
| --- | --- | --- |
| SA-Fc fusion protein (bivalent SA-Fc variant; TGEV S residues 481 to 650) Y528A | 1% | – |
| SA-Fc fusion protein (bivalent SA-Fc variant; TGEV S residues 481 to 650) W571A | 3.5% | – |
| B1 | – | binds |
